# Data from PubChem BioAssay AID720533 (National Center for Advancing Translational Sciences (NCATS), 2013).
# The entries are a selection whose mix differs from that of the whole data set. Records with an inconclusive call do not appear. The source made the active and inactive calls. Calls follow the shape of the full dose curve; tested in HEK293 cells.
# Experiment: qHTS for Inhibitors of binding or entry into cells for Lassa Virus
# Conditions: Lassa virus pseudotyped entry inhibition, cell-based qHTS
# % is scaled to controls: 0 for no effect and ±100 for the full control effect.
smiles,measurement,setting,value
Cc1cccc([N+](=O)[O-])c1[N+](=O)[O-],"activity change, negative = inhibition",at 107 µM (top of the series),inactive: -18.8%
CCOP(=O)(CC)Oc1ccc([N+](=O)[O-])cc1 (stereo not given),"activity change, negative = inhibition",at 49.2 µM (top of the series),inactive: -1.21%
CCN(CCCl)Cc1ccccc1C,"activity change, negative = inhibition",at 49.2 µM (top of the series),inactive: -7.52%
C/C1=C2N=C(/C=C3N=C(/C(C)=C4\[N-][C@@](C)([C@@H]5N=C1[C@](C)(CCC(=O)NC[C@@H](C)OP(=O)([O-])O[C@H]1[C@@H](O)[C@@H](n6cnc7cc(C)c(C)cc76)O[C@@H]1CO)[C@H]5CC(N)=O)[C@@](C)(CC(N)=O)[C@@H]4CCC(N)=O)[C@@](C)(CC(N)=O)[C@@H]\3CCC(N)=O)C(C)(C)[C@@H]/2CCC(N)=O.[C-]#N.[Co+3],"activity change, negative = inhibition",at 17.8 µM (top of the series),inactive: -16.4%
CC(C)OP(=O)(F)OC(C)C,"activity change, negative = inhibition",at 49.2 µM (top of the series),inactive: 9.89%
OCCSCCO,"activity change, negative = inhibition",at 49.2 µM (top of the series),inactive: -9.8%
CP1(=O)OC(CCl)CC(CCl)O1 (stereo not given),"activity change, negative = inhibition",at 49.2 µM (top of the series),inactive: -48%
O=C(O)C1(O)c2ccccc2-c2ccccc21,"activity change, negative = inhibition",at 49.2 µM (top of the series),inactive: 4.54%
O=C(O)C(O)(c1ccccc1)c1ccccc1,"activity change, negative = inhibition",at 49.2 µM (top of the series),inactive: 4.3%
O=[N+]([O-])[O-].[NH4+],"activity change, negative = inhibition",at 49.2 µM (top of the series),inactive: 5.5%
CN(C)CCS,"activity change, negative = inhibition",at 49.2 µM (top of the series),inactive: -8.08%
CC(C)N(CCCl)C(C)C,"activity change, negative = inhibition",at 49.2 µM (top of the series),inactive: -2.33%
O=[N+]([O-])OCC(CO[N+](=O)[O-])(CO[N+](=O)[O-])CO[N+](=O)[O-],"activity change, negative = inhibition",at 49.2 µM (top of the series),inactive: -14.7%
O=[N+]([O-])c1cccc([N+](=O)[O-])c1,"activity change, negative = inhibition",at 49.2 µM (top of the series),inactive: 1.16%
same,"activity change, negative = inhibition",at 107 µM (top of the series),inactive: 8.75%
